# Results reported in patent US20230338478A1 (University of Pennsylvania, published 2023).
# B1: hAce2-Variant2-IgG1 soluble decoy fusion protein (Fc fusion)
# chain: QSTIEEQAKTFLDMFNHKAEDLFYQSSLAAWNYNTNITEENVQNMNNAGDKWSAFLKEQSTFAQMYPLQEIQNPTVKLQLQALQQNGSSVLSEDKSKRLNTILNTMSTIYSTGKVCNPDNPQECLLLEPGLNEIMANSLDYNERLWAWESWRSEVGKQLRPLYEEYVVLKNEMARANHYEDYGDYWRGDYEVNGVDGYDYSRGQLIEDVEHTFEEIKPLYEHLHAYVRAKLMNAYPSYISPIGCLPAHLLGDMWGRFWTNLYSLTVPFGQKPNIDVTDAMVDQAWDAQRIFKEAEKFFVSVGLPNMTQGFWEYSMLTDPGNVQKAVCLPTAWDLGKGDFRILMCTKVTMDDFLTAHHEMGHIQYDMAYAAQPFLLRNGANEGFHEAVGEIMSLSAATPKHLKSIGLLSPDFQEDNETEINFLLKQALTIVGTLPFTYMLEKWRWMVFKGEIPKDQWMKKWWEMKREIVGVVEPVPHDETYCDPASLFHVSNDYSFIRYYTRTLYQFQFQEALCQAAKHEGPLHKCDISNSTEAGQKLFNMLRLGKSEPWTLALENVVGAKNMNVRPLLNYFEPLFTWLKDQNKNSFVGWSTDWSPYAD[gap - human IgG1 Fc]
# Molecular target: T1, yeast-displayed SARS-CoV-2 'Delta 4+' RBD (SARS-CoV-2)
# T1 construct: range […]
# Assay: yeast-displayed RBD, decoy titration, flow cytometry
binder,measurement,value
B1,Kd,0.07 nM
